Anti-infective test results gathered from many reports (values: NIAID ChemDB through PubChem).

Common to all: tests in culture; species: HIV-1; read by: cytopathic effect / XTT; endpoint: EC50

Rows are shuffled and stem from different studies. ECn: concentration that inhibits the pathogen or its effect by n%. Two numbers with a dash give a range or band. Blank or dashed fields: not listed here.

smiles,strain,changes,cell line,result
COc1cc(-c2ccc(N=Nc3ccc4c(S(=O)(=O)O)cc(S(=O)(=O)O)c(N)c4c3O)c(OC)c2)ccc1N=Nc1ccc2c(S(=O)(=O)O)cc(S(=O)(=O)O)c(N)c2c1O,N119,,CEM + CEM-SS,0.5 µM
COc1ccc(CCNC(=S)Nc2nccs2)cc1OC,,,MT-4,>100 µg/mL
CC[C@H](C)[C@@H](/C=C/C(=O)O)NC(=O)c1ccccc1SSc1ccccc1C(=O)N[C@H](/C=C/C(=O)O)[C@@H](C)CC,IIIB,,CEM,5 µM
S=C(NCCc1ccccc1)N1CCOCC1,,,MT-4,>10 µg/mL
C=CCOc1cc(NC(=S)c2sccc2C)ccc1Cl,IIIB,,CEM + CEM-SS,0.8 µM
CCOc1ccccc1CCNC(=S)Nc1nccs1,,,MT-4,<1 µg/mL
Cn1cc(NC(=O)Nc2cc(C(=O)Nc3cc(C(=O)Nc4ccc(P(=O)(O)O)c5cc(P(=O)(O)O)ccc45)n(C)c3)n(C)c2)cc1C(=O)Nc1cc(C(=O)Nc2ccc(P(=O)(O)O)c3cc(P(=O)(O)O)ccc23)n(C)c1,G762-3,,CEM + CEM-SS,0.1 µM
CC1=C(C(=O)Nc2ccc(Cl)c(C(=O)OC(C)C)c2)SCCO1,IIIB,,MT-2/MT2(HIV-1) + MT-2,0.0026 µg/mL
CC(=O)N1C(=O)[C@@H](Cc2ccc(Cl)cc2)NC1=S,,,MT-4,>100 µg/mL
CC(C)=CCOc1cc(NC(=S)c2ccsc2C)ccc1Cl,UC38-RS (RT-Y181C),RT-Y181C,CEM + CEM-SS,0.2 µM
CCCCCCCCCCCCCCCC(=O)Nc1ccn([C@H]2CC[C@@H](COP(=O)(O)O[C@H]3C[C@H](n4cc(C)c(=O)[nH]c4=O)O[C@@H]3CO)O2)c(=O)n1,AZT-resistant (RT D67N K70R T215Y K219Q),RT-D67N K70R T215Y K219Q,CEM + CEM-SS,0.1306 µM
CC(C)=CCOc1cc(NC(=S)c2ccoc2C)ccc1Cl,NL4-3 (RT V108I),RT-V108I,CEM + CEM-SS,0.01 µM
CNS(=O)(=O)c1ccc(NC(=O)c2ccccc2SSc2ccccc2C(=O)Nc2ccc(S(=O)(=O)NC)cc2)cc1,,,CEM,1.7 µM
Cc1ccc(-c2cc(-c3ccccc3)c(C#N)c(=O)n2[C@@H]2O[C@H](CO)[C@H](O)[C@H](O)[C@H]2O)cc1,,,MT-4,18.6 µM
CCC1=C(C(=O)Nc2ccc(Cl)c(C(=O)OCC(C)C)c2)SCCO1,IIIB,,CEM,0.0389 µg/mL
O=C(NCCc1ccccc1)Nc1nc(-c2ccc(Cl)cc2)cs1,,,MT-4,>100 µg/mL
C=CCNC(=O)NC1=CSC2=NC(=O)C3(NN12)c1ccccc1-c1ccccc13,,,CEM,>63 µM
O=C1[C@@H](Cc2ccccc2)NC(=S)N1Cc1ccccc1,,,MT-4,<10 µg/mL
NC1=NNC2(C(=O)N1)c1ccccc1-c1ccccc12,,,CEM,>200 µM
O=C(O)CC(NC(=O)c1ccccc1SSc1ccccc1C(=O)NC(CC(=O)O)c1ccccc1)c1ccccc1,IIIB,,CEM,6.9 µM
O=C(Nc1ccc(F)cc1)c1ccccc1SSc1ccccc1C(=O)Nc1ccc(F)cc1,,,CEM,4.5 µM
Cc1nc(NC(=O)NCCc2ccccc2)sc1C,,,MT-4,<10 µg/mL
O=C1NC(=S)NNC12c1ccccc1-c1ccccc12,,,CEM,>200 µM
CCc1cn([C@H]2C=C[C@@H](OCP(=O)(O)O)O2)c(=O)nc1N,IIIB,,CEM,>100 µg/mL
CCCC[C@H](NC(=O)c1ccccc1SSc1ccccc1C(=O)N[C@@H](CCCC)C(=O)O)C(=O)O,IIIB,,CEM,7.4 µM
O=C1[C@@H](c2ccccc2)NC(=S)N1c1ccccc1,,,MT-4,>10 µg/mL
Cc1occc1C(=S)Nc1ccc(Cl)c(C(=O)OCC2CC2)c1,NL4-3,RT-V108I,CEM + CEM-SS,0.08 µM
Cc1cc(C(=O)Nc2ccc(Cl)c(C(=O)OC(C)C)c2)c(C)o1,IIIB,,CEM,0.00042 µg/mL
Nc1ccn([C@H]2CC[C@@H](CO)O2)c(=O)n1,IIIB,,MT-2,0.13–0.79 µg/mL
O=C1N=C2SC=C(NC(=S)Nc3ccccc3)N2NC12c1ccccc1-c1ccccc12,,,CEM,>63 µM
Cc1occc1C(=S)Nc1ccc(Cl)c(/C=N/OC(C)(C)C)c1,4xAZT/L100I(RT-D67N K70R T215Y K219Q L100I),RT-D67N K70R L100I T215Y K219Q,CEM + CEM-SS,1 µM
CN1N=C(N)c2cn([C@@H]3O[C@H](COP(=O)(O)O)[C@@H](O)[C@H]3O)c3ncnc1c23,KELL,,CEM + CEM-SS,>2.8 µM
CC1=C(C(=O)Nc2cc(C(=O)OC(C)C)c(Cl)cc2F)SCCO1,IIIB,,CEM + CEM-SS,0.0035 µg/mL
Cc1ccsc1C(=S)Nc1ccc(Cl)c(/C=N/OC(C)(C)C)c1,IIIB,,CEM + CEM-SS,0.1 µM
COc1cc(-c2ccc(N=Nc3ccc4c(S(=O)(=O)O)cc(S(=O)(=O)O)c(N)c4c3O)c(OC)c2)ccc1N=Nc1ccc2c(S(=O)(=O)O)cc(S(=O)(=O)O)c(N)c2c1O,KELL,,CEM + CEM-SS,0.8 µM
O=C(CSC1=NNC2(C(=O)N1)c1ccccc1-c1ccccc12)NC(=S)Nc1ccccc1,,,CEM,>6.3 µM
COC(=O)c1ccccc1SSc1ccccc1C(=O)OC,,,CEM,>9.3 µM
CCc1cn([C@H]2C=C[C@@H](OCP(=O)(O)O)O2)c(=O)[nH]c1=O,IIIB,,MT-2,>100 µg/mL
Cc1occc1C(=S)Nc1ccc(Cl)c(C(=O)OC(C)C)c1,NL4-3,RT-L74V,CEM + CEM-SS,0.03 µM
Cn1cc(NC(=O)Nc2cc(C(=O)Nc3cc(C(=O)Nc4cc(C(=O)Nc5cc(P(=O)(O)O)c6cccc(P(=O)(O)O)c6c5)n(C)c4)n(C)c3)n(C)c2)cc1C(=O)Nc1cc(C(=O)Nc2cc(C(=O)Nc3cc(P(=O)(O)O)c4cccc(P(=O)(O)O)c4c3)n(C)c2)n(C)c1,RF,,CEM + CEM-SS,0.3 µM
CC=CCOc1cc(NC(=S)c2ccoc2C)ccc1OC,NL4-3,RT-V179D,CEM + CEM-SS,0.6 µM
CC(=O)OC[C@H]1O[C@@H](n2c(-c3ccc(N)cc3)cc(-c3ccco3)c(C#N)c2=O)[C@H](OC(C)=O)[C@@H](OC(C)=O)[C@@H]1OC(C)=O,,,MT-4,11.7 µM
Cn1cc(NC(=O)Nc2cc(C(=O)Nc3ccc4cc(S(=O)(=O)O)cc(S(=O)(=O)O)c4c3)n(C)c2)cc1C(=O)Nc1ccc2cc(S(=O)(=O)O)cc(S(=O)(=O)O)c2c1,RF,,CEM + CEM-SS,80.7 µM
CC(C)(C)OC(=O)[C@H](CC(N)=O)NC(=O)c1ccccc1SSc1ccccc1C(=O)N[C@@H](CC(N)=O)C(=O)OC(C)(C)C,IIIB,,CEM,5.2 µM
Cn1cc(NC(=O)Nc2cc(C(=O)Nc3cc(C(=O)Nc4cc(S(=O)(=O)O)c5cc(S(=O)(=O)O)cc(S(=O)(=O)O)c5c4)n(C)c3)n(C)c2)cc1C(=O)Nc1cc(C(=O)Nc2cc(S(=O)(=O)O)c3cc(S(=O)(=O)O)cc(S(=O)(=O)O)c3c2)n(C)c1,N119,,CEM + CEM-SS,0.4 µM
COC(=O)[C@H](Cc1ccccc1)NC(=O)[C@H]1/C(=C/CO)O[C@@H]2CC(=O)N21,IIIB,,CEM,18 µg/mL
NNC(=O)c1ccccc1SSc1ccccc1C(=O)NN,,,CEM,>16 µM
Nc1nc2c(ncn2[C@@H]2C=C[C@H](CO)C2)c(=O)[nH]1,IIIB,,MT-2C + MT-2,>50 µg/mL
C=CCO/N=C/c1cc(NC(=S)c2ccoc2C)ccc1Cl,NL4-3,,CEM + CEM-SS,0.007 µM
CC(C)Oc1ccc(NC(=O)c2ccccc2SSc2ccccc2C(=O)Nc2ccc(OC(C)C)cc2)cc1,,,CEM,12 µM

6 of the rows above, restated:

smiles	strain	changes	cell line	result
COc1cc(-c2ccc(N=Nc3ccc4c(S(=O)(=O)O)cc(S(=O)(=O)O)c(N)c4c3O)c(OC)c2)ccc1N=Nc1ccc2c(S(=O)(=O)O)cc(S(=O)(=O)O)c(N)c2c1O	N119		CEM + CEM-SS	0.5 µM
C=CCO/N=C/c1cc(NC(=S)c2ccoc2C)ccc1Cl	NL4-3		CEM + CEM-SS	0.007 µM
CC(C)=CCOc1cc(NC(=S)c2ccsc2C)ccc1Cl	UC38-RS (RT-Y181C)	RT-Y181C	CEM + CEM-SS	0.2 µM
Cn1cc(NC(=O)Nc2cc(C(=O)Nc3ccc4cc(S(=O)(=O)O)cc(S(=O)(=O)O)c4c3)n(C)c2)cc1C(=O)Nc1ccc2cc(S(=O)(=O)O)cc(S(=O)(=O)O)c2c1	RF		CEM + CEM-SS	80.7 µM
C=CCOc1cc(NC(=S)c2sccc2C)ccc1Cl	IIIB		CEM + CEM-SS	0.8 µM
O=C(Nc1ccc(F)cc1)c1ccccc1SSc1ccccc1C(=O)Nc1ccc(F)cc1			CEM	4.5 µM